Results of unrelated studies side by side (data: NIAID ChemDB).

Shared fields: whole-cell or culture tests; agent: Candida albicans; measure: MIC

Blank or dashed fields: not listed here. Neighbouring rows are from separate reports.

| smiles | strain or isolate | setting | value |
|---|---|---|---|
| CCCCCCCCCCCC(=O)OC1CC[C@@]2(C)C(=CCC3C2CC[C@@]2(C)C3CC[C@@H]2[C@H](C)CCCC(C)C)C1 |  |  | >100 µg/mL |
| CC(C)(C)c1ccc(CN(Cc2cccc3ccccc23)n2ccnc2)cc1 |  |  | >200 µM |
| CCC(C)CC(C)CCCCCCCCC(=O)N[C@H]1C[C@@H](O)[C@@H](O)NC(=O)[C@@H]2[C@@H](O)CCN2C(=O)[C@H]([C@H](O)CC(N)=O)NC(=O)[C@H]([C@H](O)[C@@H](O)c2ccc(O)cc2)NC(=O)[C@@H]2C[C@@H](O)CN2C(=O)[C@H]([C@@H](C)O)NC1=O |  |  | 0.02 µg/mL |
| CN1CCC2=C(CCCC2CCc2ccc(Br)cc2)C1 | 2381E |  | 16 µg/mL |
| C[C@H]1[C@H](O)[C@@H](C)/C=C/C=C/C=C/C=C/C=C/C=C/C=C/[C@H](O[C@@H]2O[C@H](C)[C@@H](O)[C@H](N)[C@@H]2O)C[C@@H]2O[C@](O)(C[C@@H](O)C[C@@H](O)CC[C@H](O)[C@@H](O)C[C@@H](O)CC(=O)O[C@H]1C)C[C@H](O)[C@H]2C(=O)O | ATCC 24433 |  | 0.06 µg/mL |
| C[C@@H]1[C@H](O)[C@@H](C)/C=C/C=C/C=C/C=C/C=C/C=C/C=C/[C@H](OC2O[C@@H](C)[C@H](O)[C@@H](N)[C@H]2O)C[C@@H]2OC(O)(C[C@@H](O)C[C@@H](O)[C@H](O)CC[C@@H](O)C[C@@H](O)CC(=O)C[C@H]1C)C[C@H](O)[C@H]2C(=O)O | MTCC 3958 |  | 300 µg/mL |
| CCC(C)n1ncn(-c2ccc(N3CCN(c4ccc(OC[C@H]5CO[C@](Cn6cncn6)(c6ccc(Cl)cc6Cl)O5)cc4)CC3)cc2)c1=O | AD |  | 0.13 µg/mL |
| CCCCCCCCCC(=O)O |  |  | 290 µg/mL |
| CN(C/C=C/C#CC(C)(C)C)Cc1cccc2ccccc12 | YAG171 (genotype RBP1/RBP1) |  | >12.5 µg/mL |
| COc1ccc2cc3[n+](cc2c1O)CCc1cc2c(cc1-3)OCO2 | ATCC 10231 |  | >500 µg/mL |
| CN1CCC2=C(CCCC2CCc2ccc(Cl)cc2)C1 | 2402E |  | 8 µg/mL |
| CC(=O)N1CCN(c2ccc(OC[C@H]3CO[C@](Cn4ccnc4)(c4ccc(Cl)cc4Cl)O3)cc2)CC1 | ATCC 24433 |  | 0.125 µg/mL |
| CN1CCC2=C(CCCC2CCc2ccc(Cl)c(Cl)c2)C1 | 1208E |  | 31 µg/mL |
| Clc1ccc(COC(Cn2ccnc2)c2ccc(Cl)cc2Cl)cc1 | 505 |  | <2 µg/mL |
| Oc1cc(Cl)cc2cccnc12 | ATCC 60913 | 48 h | 12 µg/mL |
| COc1cc(Cc2cnc(N)nc2N)ccc1OCCCCN1C(=O)c2ccccc2C1=O | YEM27 (quadruple deletion) |  | 64 µg/mL |
| CC(C)(C)c1ccc(CN(Cc2cccc3ccccc23)N2C=NNC2)cc1 |  |  | >200 µM |
| Nc1[nH]c(=O)ncc1F | ATCC 24433 |  | 2 µg/mL |
| CCCCCCCCCCCC(=O)OCC(O)CO |  |  | 90 µg/mL |
| c1ccc(CC2CCCc3cnccc32)cc1 | 2381E |  | 31 µg/mL |
| Oc1c(Cl)ccc2cccnc12 | ATCC 60913 | 48 h | 12 µg/mL |
| COc1cc(Cc2cnc(N)nc2N)cc(OC)c1OCCCNc1ccc(S(=O)(=O)c2ccc(N)cc2)cc1 | YEM 12 (WT) |  | >64 µg/mL |
| CCCCCCCCCCC(=O)Oc1c(OC)ccc2cc3[n+](cc12)CCc1cc2c(cc1-3)OCO2 | ATCC 10231 |  | 500 µg/mL |
| Oc1cccc2cc(Cl)cnc12 | ATCC 60913 | 24 h | 50 µg/mL |
| CC1=C(CCCc2ccc(F)cc2)CCN(C)C1 | C316 |  | 31 µg/mL |
| C(=C\c1ccccc1)/CN(Cc1cccc2ccccc12)n1cnnc1 |  |  | >200 µM |
| COc1ccc(CCC2(CCc3ccc(OC)cc3)CCCc3cnccc32)cc1 | C316 |  | >125 µg/mL |
| CC(C)=CCC/C(C)=C/CC/C(C)=C/CC[C@@]1(C)[C@H](CCCO)/C(=C(/C)C=O)CC[C@]1(C)O | 127 |  | >50 µg/mL |
| CCCCC/C=C\C/C=C\CCCCCCCC(=O)O |  |  | 455 µg/mL |
| C[C@H]1[C@H](O)[C@@H](C)/C=C/C=C/C=C/C=C/C=C/C=C/C=C/[C@H](O[C@@H]2O[C@H](C)[C@@H](O)[C@H](N)[C@@H]2O)C[C@@H]2O[C@](O)(C[C@@H](O)C[C@@H](O)CC[C@H](O)[C@@H](O)C[C@@H](O)CC(=O)O[C@H]1C)C[C@H](O)[C@H]2C(=O)O | 505 |  | <2 µg/mL |
| Cc1cnccc1CCCc1ccccc1 | 2402E |  | 16 µg/mL |
| CC[C@H]1OC(=O)C=C2C1=CC1OC(=O)[C@@]3(C)CCC[C@@]2(C)[C@@H]13 | 1463D |  | 8 µg/mL |
| CN1CCC2=C(CCCC2CCc2ccccc2Cl)C1 | C316 |  | 16 µg/mL |
| CCCCCCCC(=O)O |  |  | >1000 µg/mL |
| c1c[nH]cn1 | 505 |  | >256 µg/mL |
| CO[C@H]1OC(=O)C[C@@]2(O)[C@@]13O[C@@H]3C1OC(=O)[C@@]3(C)CCC[C@@]2(C)[C@@H]13 | ATCC 90028 |  | >64 µg/mL |
| CCCCCC(=O)O |  |  | >1000 µg/mL |

For reference, 2 entries again:

smiles | strain or isolate | setting | value
CC[C@H]1OC(=O)C=C2C1=CC1OC(=O)[C@@]3(C)CCC[C@@]2(C)[C@@H]13 | 1463D |  | 8 µg/mL
Nc1[nH]c(=O)ncc1F | ATCC 24433 |  | 2 µg/mL